## HIV-1 NL4-3 point mutations in Nef: replication capacity

Source: Al-Mawsawi et al. 2014 (doi:10.1186/s12977-014-0124-6), supplementary data.

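Random point mutant libraries of HIV-1 NL4-3, one for each of seven fragments, were passaged in CEM T lymphocytes. The RC index is the frequency of a change after passage round 2 divided by its frequency in the plasmid library.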

Protein: Nef of HIV-1 NL4-3, numbered from its first residue.
Effects on overlapping genes or RNA elements are not listed.

RC index: lower means poorer replication; rough cut-offs are 0.1 (lethal) and 0.2 (tolerated). Each entry names the wild-type residue, its position and the residue put in its place. An index over 1, which the authors read as above wild type, was rare (1.9% of all changes in the genome).

change	base	replication capacity index
M1L	A8787T	0.00421
M1T	T8788C	0.227
G2D	G8791A	0.321
G2A	G8791C	0.273
G3R	G8793C	0.109
G3A	G8794C	0.120
K4Q	A8796C	0.138
K4E	A8796G	0.0678
K4T	A8797C	1.24
K4M	A8797T	0.715
K4N	G8798C	0.818
K4N	G8798T	0.937
W5R	T8799A	0.285
W5R	T8799C	0.0643
W5L	G8800T	0.207
W5C	G8801C	6.21
S6T	T8802A	0.174
K7R	A8806G	0.0915
S8R	A8808C	0
S8G	A8808G	0.673
S8N	G8809A	0.738
S8T	G8809C	0.198
S8R	T8810A	0.583
S8R	T8810G	0.526
S9G	A8811G	0.0590
S9N	G8812A	0.282
S9T	G8812C	0.124
V10A	T8815C	4.38
I11N	T8818A	0.0359
I11T	T8818C	0.323
I11M	T8819G	0.0729
W13R	T8823C	0.364
P14A	C8826G	0.0978
A15P	G8829C	0.186
V16L	G8832C	0
V16A	T8833C	0.196
R17M	G8836T	0.309
R17S	G8837T	1.20
E18G	A8839G	0.0671
E18V	A8839T	0.115
E18D	A8840C	0.0602
E18D	A8840T	0.0263
R19K	G8842A	1.37
R19S	A8843T	0.0186
M20L	A8844T	0.102
M20T	T8845C	0.122
R21S	A8849T	0.911
R22G	C8850G	0.612
A23D	C8854A	0.0968
E24D	G8858T	0.0513
A27T	G8865A	0.571
A27S	G8865T	0.170
D28G	A8869G	0.777
D28V	A8869T	0.0170
G29W	G8871T	0.659
V30G	T8875G	0.0454
K39I	A8902T	0.394
K39N	A8903T	0.946
H40L	A8905T	0.433
I43V	A8913G	0.772
I43F	A8913T	0.756
I43N	T8914A	0.591
T44A	A8916G	0.463
T44I	C8917T	0.985
S45R	A8919C	0.489
S45C	A8919T	0.727
S45N	G8920A	0.964
S45R	T8921A	0.581
S46G	A8922G	0.963
S46C	A8922T	0.434
S46T	G8923C	0.682
S46R	C8924A	0.290
N47K	T8927A	0.932
T48R	C8929G	0.432
A49T	G8931A	0.960
A49P	G8931C	0.446
A49E	C8932A	0.590
A50P	G8934C	0.744
N51T	A8938C	0.809
N51I	A8938T	0.846
N51K	C8939G	0.421
N52I	A8941T	0.797
A53T	G8943A	0.791
A53S	G8943T	0.806
A53D	C8944A	0.521
A54T	G8946A	0.817
A54S	G8946T	0.551
C55W	T8951G	0.549
A56T	G8952A	0.835
A56S	G8952T	0.532
W57R	T8955A	1.07
W57L	G8956T	0.674
W57C	G8957C	1.94
L58P	T8959C	0.806
E59A	A8962C	0.267
E59G	A8962G	0.782

Excerpt, the final 9 entries:

{"change": "C55W", "base": "T8951G", "replication capacity index": 0.549}
{"change": "A56T", "base": "G8952A", "replication capacity index": 0.835}
{"change": "A56S", "base": "G8952T", "replication capacity index": 0.532}
{"change": "W57R", "base": "T8955A", "replication capacity index": 1.07}
{"change": "W57L", "base": "G8956T", "replication capacity index": 0.674}
{"change": "W57C", "base": "G8957C", "replication capacity index": 1.94}
{"change": "L58P", "base": "T8959C", "replication capacity index": 0.806}
{"change": "E59A", "base": "A8962C", "replication capacity index": 0.267}
{"change": "E59G", "base": "A8962G", "replication capacity index": 0.782}

Clones carried about five changes per kilobase, which can drag down the index of neutral changes. Nucleotide positions follow pNL4-3.